Results reported in ChEMBL document CHEMBL4665854, “Backbone Cyclization Turns a Venom Peptide into a Stable and Equipotent Ligand at Both Muscle and Neuronal Nicotinic Receptors” (J Med Chem, 2020).

The chains behind the UniProt entries cited, without tags or fusion partners. Residues count along the entry.
UniProt P25109, 24-501 limits assumed: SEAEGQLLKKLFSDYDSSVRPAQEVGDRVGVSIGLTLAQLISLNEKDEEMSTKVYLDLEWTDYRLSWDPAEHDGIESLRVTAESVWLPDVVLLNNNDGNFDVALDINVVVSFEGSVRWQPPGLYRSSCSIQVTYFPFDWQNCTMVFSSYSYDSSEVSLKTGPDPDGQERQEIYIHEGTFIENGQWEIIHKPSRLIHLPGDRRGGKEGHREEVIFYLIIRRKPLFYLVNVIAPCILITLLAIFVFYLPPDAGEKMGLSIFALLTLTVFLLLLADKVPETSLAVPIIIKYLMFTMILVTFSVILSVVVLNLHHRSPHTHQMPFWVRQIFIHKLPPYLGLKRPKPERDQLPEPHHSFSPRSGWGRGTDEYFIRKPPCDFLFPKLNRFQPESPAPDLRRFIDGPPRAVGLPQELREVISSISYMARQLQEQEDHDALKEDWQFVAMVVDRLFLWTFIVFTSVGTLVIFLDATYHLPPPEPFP
UniProt P25108, 21-457 limits assumed: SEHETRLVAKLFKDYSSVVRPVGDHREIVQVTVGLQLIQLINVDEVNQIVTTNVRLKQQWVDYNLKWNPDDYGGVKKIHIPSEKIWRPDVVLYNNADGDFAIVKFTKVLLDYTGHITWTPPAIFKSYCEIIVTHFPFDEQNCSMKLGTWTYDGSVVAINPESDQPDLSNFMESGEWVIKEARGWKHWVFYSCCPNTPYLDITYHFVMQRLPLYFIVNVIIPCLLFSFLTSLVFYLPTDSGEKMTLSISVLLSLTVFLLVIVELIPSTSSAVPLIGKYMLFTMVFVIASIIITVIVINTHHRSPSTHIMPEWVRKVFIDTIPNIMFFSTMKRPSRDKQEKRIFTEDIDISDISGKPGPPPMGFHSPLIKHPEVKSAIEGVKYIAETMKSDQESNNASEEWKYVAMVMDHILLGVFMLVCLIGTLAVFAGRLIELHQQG
UniProt P25110, 22-517 limits assumed: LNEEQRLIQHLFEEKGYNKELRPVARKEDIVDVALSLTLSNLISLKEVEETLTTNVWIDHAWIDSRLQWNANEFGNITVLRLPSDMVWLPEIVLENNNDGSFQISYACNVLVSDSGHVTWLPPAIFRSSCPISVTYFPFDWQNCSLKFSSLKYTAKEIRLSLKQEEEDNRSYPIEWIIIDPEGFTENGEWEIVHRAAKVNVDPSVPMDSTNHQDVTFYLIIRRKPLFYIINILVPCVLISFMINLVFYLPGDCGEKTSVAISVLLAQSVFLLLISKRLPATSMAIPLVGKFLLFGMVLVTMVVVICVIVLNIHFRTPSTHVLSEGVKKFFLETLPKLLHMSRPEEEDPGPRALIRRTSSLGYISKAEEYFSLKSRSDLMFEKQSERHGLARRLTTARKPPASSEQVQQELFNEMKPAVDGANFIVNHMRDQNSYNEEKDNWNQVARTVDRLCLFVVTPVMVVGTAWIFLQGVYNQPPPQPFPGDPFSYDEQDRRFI
UniProt P18916, 23-519 limits assumed: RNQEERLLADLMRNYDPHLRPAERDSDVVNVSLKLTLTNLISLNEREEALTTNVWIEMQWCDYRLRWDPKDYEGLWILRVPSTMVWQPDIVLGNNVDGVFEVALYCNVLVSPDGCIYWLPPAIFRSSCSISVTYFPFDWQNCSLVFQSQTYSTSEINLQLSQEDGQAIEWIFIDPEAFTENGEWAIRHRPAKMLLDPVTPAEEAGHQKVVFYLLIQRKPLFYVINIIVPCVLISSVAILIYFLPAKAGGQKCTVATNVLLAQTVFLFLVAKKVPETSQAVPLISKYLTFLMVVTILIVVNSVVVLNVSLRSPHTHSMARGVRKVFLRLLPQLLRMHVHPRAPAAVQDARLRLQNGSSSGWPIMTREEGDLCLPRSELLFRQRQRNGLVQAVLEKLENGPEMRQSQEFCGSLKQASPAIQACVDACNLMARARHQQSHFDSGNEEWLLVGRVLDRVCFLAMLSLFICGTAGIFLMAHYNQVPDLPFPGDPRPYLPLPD
UniProt P04757, 26-499 limits assumed: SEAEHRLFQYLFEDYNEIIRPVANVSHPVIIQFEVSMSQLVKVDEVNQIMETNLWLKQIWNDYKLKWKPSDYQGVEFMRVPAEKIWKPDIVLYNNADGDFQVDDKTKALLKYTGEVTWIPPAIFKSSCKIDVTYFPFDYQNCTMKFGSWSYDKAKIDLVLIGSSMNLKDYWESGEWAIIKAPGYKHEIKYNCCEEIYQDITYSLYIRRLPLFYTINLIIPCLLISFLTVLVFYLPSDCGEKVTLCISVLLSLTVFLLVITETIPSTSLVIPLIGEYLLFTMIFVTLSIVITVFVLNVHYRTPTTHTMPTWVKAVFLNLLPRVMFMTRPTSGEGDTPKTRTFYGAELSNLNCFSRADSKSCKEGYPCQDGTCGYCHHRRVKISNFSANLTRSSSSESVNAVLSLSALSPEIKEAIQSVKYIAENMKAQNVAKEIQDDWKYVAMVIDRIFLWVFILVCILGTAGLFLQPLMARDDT
UniProt P12390, 25-500 limits assumed: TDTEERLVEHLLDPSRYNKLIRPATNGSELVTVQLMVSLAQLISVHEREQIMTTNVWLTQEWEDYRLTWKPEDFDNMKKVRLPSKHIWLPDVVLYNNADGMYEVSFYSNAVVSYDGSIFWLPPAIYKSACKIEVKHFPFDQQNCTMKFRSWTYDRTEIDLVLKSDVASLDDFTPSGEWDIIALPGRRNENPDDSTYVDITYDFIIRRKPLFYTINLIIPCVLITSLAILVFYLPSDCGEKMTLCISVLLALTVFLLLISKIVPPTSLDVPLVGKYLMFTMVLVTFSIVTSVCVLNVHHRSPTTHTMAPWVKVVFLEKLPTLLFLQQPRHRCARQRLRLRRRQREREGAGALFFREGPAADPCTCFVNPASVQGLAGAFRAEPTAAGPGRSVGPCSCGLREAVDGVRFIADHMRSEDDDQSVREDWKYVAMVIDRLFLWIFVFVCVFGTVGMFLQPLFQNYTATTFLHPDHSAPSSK

Tests used:
[1] = biological target: CHRNA1/CHRNB1/CHRNG/CHRND (Rattus norvegicus, UniProt P25109+P25108+P25110+P18916); test: Inhibition of rat (alpha1)2betagammadelta expressed in Xenopus laevis oocytes assessed as inhibition of acetylcholine-induced channel current response at -70 mV holding potential by two-electrode voltage-clamp assay; assay type: cell-based, Oocyte
[2] = biological target: Neuronal acetylcholine receptor; alpha3/beta2 (Rattus norvegicus, UniProt P04757+P12390); test: Inhibition of rat alpha3beta2 expressed in Xenopus laevis oocytes assessed as inhibition of acetylcholine-induced channel current response at -70 mV holding potential by two-electrode voltage-clamp assay; assay type: cell-based, Oocyte

C[C@@H]1NC(=O)[C@@H]2CCCN2C(=O)[C@H](Cc2c[nH]cn2)NC(=O)[C@@H]2CSSC[C@@H](C(N)=O)NC(=O)[C@H](CO)NC(=O)[C@H](Cc3ccccc3)NC(=O)[C@H](Cc3c[nH]cn3)NC(=O)[C@H](CCCCN)NC(=O)CNC(=O)[C@H](CSSC[C@H](NC(=O)[C@H](CCCNC(=N)N)NC(=O)CNC(=O)[C@@H](N)CC(N)=O)C(=O)N2)NC1=O
IC50 [1]: 6.62 nM
IC50 [2]: 68.2 nM
